# Data as given in US20050143392A1, “Chrysogenazine obtained from fungus Penicillium chrysogenum having antibacterial activity” (Council of Scientific & Industrial Research, priority 2003, published 2005).
# System: Vibrio cholerae MCM B-322
# Test: Antibacterial activity, simple disc diffusion (agar diffusion) technique
# Settings: agar plates; chrysogenazine 5-30 mcg/disc; penicillin 10 units/disc, amphicillin 10 mcg/disc, streptomycin 10 mcg/disc
substance,measurement,value
penicillin,zone of inhibition,0 mm
